Compound potency records, mixed from different reports. Data source: NIAID ChemDB in PubChem.

Common to all: tests in culture; species: Mycobacterium avium complex

ECn: concentration that inhibits the pathogen or its effect by n%. An empty or dashed field is not shown. A number after MIC or MFC names an inhibition level or a share of isolates. Lines come from different laboratories, so protocols vary.

compound,measure,cells,strain or isolate,value
C[C@@H]1CN(c2c(F)c(N)c3c(=O)c(C(=O)O)cn(C4CC4)c3c2F)C[C@H](C)N1,MIC90,,25 isolates,8 µg/mL
CCCCNC(=O)OCCN=c1ssc2ccccc12,MIC,,AN1,2 µg/mL
Cc1ccc(Sc2nc(Cl)nc3nc[nH]c23)cc1C,MIC,,NJ211,>12.8 µg/mL
COc1c(N2CCNC(C)C2)c(F)cc2c(=O)c(C(=O)O)cn(C3CC3)c12,MIC90,,18 strains,12.5 µg/mL
Cc1cccc(CSc2ccncc2)c1,MIC,,NJ211,>12.8 µg/mL
CN[C@@H]1[C@H](O[C@H]2[C@H](O[C@H]3[C@H](O)[C@@H](O)[C@H](N=C(N)N)[C@@H](O)[C@@H]3N=C(N)N)O[C@@H](C)[C@]2(O)C=O)O[C@@H](CO)[C@H](O)[C@H]1O,MIC,,N-238 (HIV-),16 µg/mL
CC[C@H]1OC(=O)[C@H](C)[C@@H](O[C@H]2C[C@@](C)(OC)[C@@H](O)[C@H](C)O2)[C@H](C)[C@@H](O[C@@H]2O[C@H](C)C[C@H](N(C)C)[C@H]2O)[C@](C)(OC)C[C@@H](C)C(=O)[C@H](C)[C@@H](O)[C@]1(C)O,MIC,,Isolate 90-08027,2 µg/mL
CC[C@H]1OC(=O)[C@H](C)[C@@H](O[C@H]2C[C@@](C)(OC)[C@@H](O)[C@H](C)O2)[C@H](C)[C@@H](O[C@@H]2O[C@H](C)C[C@H](N(C)C)[C@H]2O)[C@](C)(OC)C[C@@H](C)C(=O)[C@H](C)[C@@H](O)[C@]1(C)O,MIC,,D-3,4 µg/mL
CC1COc2c(N3CCN(C)CC3)c(F)cc3c(=O)c(C(=O)O)cn1c23,MIC90,,25 isolates,>8 µg/mL
OCCn1sc2ccccc2c1=S,MIC,,ISS 486,4 µg/mL
CCCCCCSc1nc(Cl)nc2nc[nH]c12,MIC,,NJ211,>12.8 µg/mL
CCCCCNC(=O)O[C@H]1C(O[C@@H]2[C@@H](C)[C@H](O[C@H]3C[C@@](C)(OC)[C@@H](OC(C)=O)[C@H](C)O3)[C@@H](C)C(=O)O[C@H](CC)[C@@](C)(O)[C@H](O)[C@@H](C)/C(=N/OCCCC3CCCCC3)[C@H](C)CC2(C)O)O[C@H](C)C[C@@H]1N(C)C,MIC,,20096,0.2 µg/mL
CCCCNC(=O)OCCn1sc2ccccc2c1=S,MIC,,ATCC 15769,4 µg/mL
CCCCCCCCOC1O[C@@H](C(O)COC2O[C@@H](C(O)CO)[C@H](O)[C@H]2O)[C@H](O)[C@H]1O,MIC,,NJ211,>128 µg/mL
NC1CCN(c2c(F)cc3c(=O)c(C(=O)O)cn(C4CC4)c3c2Cl)C1,MIC,,ATCC 35718,>8 µg/mL
CC[C@H]1OC(=O)[C@H](C)[C@@H](OC2C[C@@](C)(OC)[C@@H](OC(=O)CC3CCCCC3)[C@H](C)O2)[C@H](C)[C@@H](O[C@@H]2O[C@H](C)C[C@H](N(C)C)[C@H]2O)C(C)(O)C[C@@H](C)/C(=N\OCCCOc2ccccc2)[C@H](C)[C@@H](O)[C@]1(C)O,MIC,,20096 (clarithromycin-resistant),1.56 µg/mL
CC[C@H]1OC(=O)[C@H](C)[C@@H](O[C@H]2C[C@@](C)(OC)[C@@H](O)[C@H](C)O2)[C@H](C)[C@@H](O[C@@H]2O[C@H](C)C[C@H](N(C)C)[C@H]2O)[C@](C)(OC)C[C@@H](C)C(=O)[C@H](C)[C@@H](O)[C@]1(C)O,MIC,,N-444,6.25 µg/mL
CC[C@H]1OC(=O)[C@H](C)[C@@H](O[C@H]2C[C@@](C)(OC)[C@@H](OC(C)=O)[C@H](C)O2)[C@H](C)[C@@H](OC2O[C@H](C)C[C@H](N(C)C)[C@H]2OC(=O)NCCCCCCCCCCCCCCN(C)C)C(C)(O)C[C@@H](C)/C(=N\OCCCC2CCCCC2)[C@H](C)[C@@H](O)[C@]1(C)O,MIC,,20034,0.39 µg/mL
c1c[nH]c(Sc2ncnc3nc[nH]c23)n1,MIC,,NJ211,>12.8 µg/mL
CC1(C)N=C(N)N=C(N)N1OCCCOc1cc(Cl)c(Cl)cc1Cl,MIC,,DW24,2 µg/mL
CCCCCCCCC(=O)O[C@H]1[C@H](C)OC(O[C@H]2[C@H](C)[C@@H](O[C@@H]3O[C@H](C)C[C@H](N(C)C)[C@H]3O)C(C)(O)C[C@@H](C)/C(=N\OCCCOc3ccccc3)[C@H](C)[C@@H](O)[C@](C)(O)[C@@H](CC)OC(=O)[C@@H]2C)C[C@@]1(C)OC,MIC,,20096 (clarithromycin-resistant),3.13 µg/mL
CO[C@H]1/C=C/O[C@@]2(C)Oc3c(C)c(O)c4c(=O)c(c5oc6cc(N7CCN(CC(C)C)CC7)cc(=O)c6nc5c4c3=C2O)NC(=O)/C(C)=C\C=C\[C@H](C)[C@H](O)[C@@H](C)[C@@H](O)[C@@H](C)[C@H](OC(C)=O)[C@@H]1C,MIC,,N-251 (HIV-),0.05 µg/mL
CCNC(=O)OCCn1sc2ccccc2c1=O,MIC,,ISS 486,>32 µg/mL
CCCCCCCCO[C@@H]1O[C@@H](C(CO[C@@H]2O[C@@H](C(COC(C)=O)OC(C)=O)[C@H](OC(C)=O)[C@H]2OC(C)=O)OC)[C@H](OC)[C@H]1OC,MIC,,NJ3404,>128 µg/mL
CC[C@H]1OC(=O)[C@H](C)[C@@H](O[C@H]2C[C@@](C)(OC)[C@@H](OC(C)=O)[C@H](C)O2)[C@H](C)[C@@H](OC2O[C@H](C)C[C@H](N(C)C)[C@H]2OC(=O)NC)C(C)(O)C[C@@H](C)/C(=N\OCCCC2CCCCC2)[C@H](C)[C@@H](O)[C@]1(C)O,MIC,,20096,3.13 µg/mL
CC(C)(C)NC(=O)OCCN=c1ssc2ccccc12,MIC,,ATCC 15769,8 µg/mL
Cc1ccccc1CSc1ccccn1,MIC,,NJ211,>12.8 µg/mL
CC[C@H]1OC(=O)[C@H](C)[C@@H](O[C@H]2C[C@@](C)(OC)[C@@H](OC(C)=O)[C@H](C)O2)[C@H](C)[C@@H](O[C@@H]2O[C@H](C)C[C@H](N(C)C)[C@H]2OC(=O)NNCc2ccccc2OC)C(C)(O)C[C@@H](C)/C(=N\OCCCC2CCCCC2)[C@H](C)[C@@H](O)[C@]1(C)O,MIC,,20092 (clarithromycin-resistant),0.39 µg/mL
CC[C@H]1OC(=O)[C@H](C)[C@@H](O[C@H]2C[C@@](C)(OC)[C@@H](O)[C@H](C)O2)[C@H](C)[C@@H](O[C@@H]2O[C@H](C)C[C@H](N(C)C)[C@H]2O)[C@](C)(O)C[C@@H](C)C(=O)[C@H](C)[C@@H](O)[C@]1(C)O,MIC50,,25 isolates,>8 µg/mL
CCCCCCCCCCCCCCN(C)C(=O)O[C@H]1C(O[C@@H]2[C@@H](C)[C@H](O[C@H]3C[C@@](C)(OC)[C@@H](OC(C)=O)[C@H](C)O3)[C@@H](C)C(=O)O[C@H](CC)[C@@](C)(O)[C@H](O)[C@@H](C)/C(=N/OCCCC3CCCCC3)[C@H](C)CC2(C)O)O[C@H](C)C[C@@H]1N(C)C,MIC,,20096,0.2 µg/mL
CO[C@H]1/C=C/O[C@@]2(C)Oc3c(C)c(O)c4c(O)c(c5c(c4c3C2=O)NC2(CCN(CC(C)C)CC2)N=5)=NC(=O)/C(C)=C\C=C\[C@H](C)[C@H](O)[C@@H](C)[C@@H](O)[C@@H](C)[C@H](OC(C)=O)[C@@H]1C,MIC,,CIPT 140310003 (rough),0.25 µg/mL
CC1CN(c2cc3c(cc2F)c(=O)c(C(=O)O)cn3-c2ccc(F)cc2F)CCN1,MIC,,ATCC 35718,>8 µg/mL
Cc1onc(-c2ccccc2Cl)c1C(=O)N[C@@H]1C(=O)N2[C@@H]1SC(C)(C)[C@@H]2C(=O)O,MIC,,CIPT 140310012,100 µg/mL
CCCCCCCCO[C@H]1OC([C@@H](COC)O[C@H]2O[C@H]([C@@H](O)CO)[C@@H](O)[C@@H]2O)[C@@H](OC)[C@@H]1OC,MIC,,NJ3404,>12.8 µg/mL
O=c1nc(SCc2ccncc2)c2[nH]cnc2[nH]1,MIC,,NJ211,>12.8 µg/mL
CCCCNC(=O)OCCn1sc2ccccc2c1=O,MIC,,ATCC 15769,16 µg/mL
COc1ccc(OC)c(Sc2ncnc3nc[nH]c23)c1,MIC,,NJ211,>12.8 µg/mL
CCNC(=O)[C@@H](NC(=O)Cc1ccccc1)[C@@H]1N[C@@H](C(=O)NCCNC(=O)[C@@H]2N[C@@H]([C@H](NC(=O)Cc3ccccc3)C(=O)NCC)SC2(C)C)C(C)(C)S1,MIC,,CIPT 140310012,25 µg/mL
CCCNC(=O)OCCn1sc2ccccc2c1=O,MIC,,AN3,16 µg/mL
Nc1ccc(S(=O)(=O)c2ccc(N)cc2)cc1,MIC,,FAR,64 µg/mL
CO[C@H]1/C=C/O[C@@]2(C)Oc3c(C)c(O)c4c(O)c(c5c(c4c3C2=O)NC2(CCN(CC(C)C)CC2)N=5)=NC(=O)/C(C)=C\C=C\[C@H](C)[C@H](O)[C@@H](C)[C@@H](O)[C@@H](C)[C@H](OC(C)=O)[C@@H]1C,MIC,,N-265 (HIV-),0.125 µg/mL
CC(C)N=C(N)/N=C(\N)Nc1ccc(Cl)cc1,MIC,,LPR,128 µg/mL
N[C@@H]1CN(c2c(F)cc3c(=O)c(C(=O)O)cn([C@@H]4C[C@@H]4F)c3c2Cl)CC12CC2,EC50,Macrophages,101,<10 µg/mL
CCCCCCCCOC1OC([C@H](CO)OC2O[C@@H](C(O)CO)[C@H](O)[C@H]2O)[C@H](O)[C@H]1O,MIC,,NJ211,>128 µg/mL
CC(C)(C)NC(=O)OCCn1sc2ccccc2c1=O,MIC,,AN2,>32 µg/mL
CCCCCCCCC(=O)O[C@H]1[C@H](C)[C@@H](O[C@@H]2O[C@H](C)C[C@H](N(C)C)[C@H]2O)C(C)(O)C[C@@H](C)/C(=N\OCCCOc2ccccc2)[C@H](C)[C@@H](O)[C@](C)(O)[C@@H](CC)OC(=O)[C@@H]1C,MIC,,20092 (clarithromycin-resistant),3.13 µg/mL
CC1(C)N=C(N)N=C(N)N1OCCCOc1cc(Cl)c(Cl)cc1Cl,MIC,,1960,1 µg/mL
C#CCNC(=O)O[C@H]1C(O[C@@H]2[C@@H](C)[C@H](O[C@H]3C[C@@](C)(OC)[C@@H](OC(C)=O)[C@H](C)O3)[C@@H](C)C(=O)O[C@H](CC)[C@@](C)(O)[C@H](O)[C@@H](C)/C(=N/OCCCC3CCCCC3)[C@H](C)CC2(C)O)O[C@H](C)C[C@@H]1N(C)C,MIC,,20096,0.2 µg/mL
C[C@@H](O)[C@H]1C(=O)N2C(C(=O)O)=C(SCCN=CN)C[C@H]12,MIC,,CIPT 140310003 (smooth),10 µg/mL

The last 3 rows once more:

CC1(C)N=C(N)N=C(N)N1OCCCOc1cc(Cl)c(Cl)cc1Cl ; measure: MIC ; strain or isolate: 1960 ; value: 1 µg/mL
C#CCNC(=O)O[C@H]1C(O[C@@H]2[C@@H](C)[C@H](O[C@H]3C[C@@](C)(OC)[C@@H](OC(C)=O)[C@H](C)O3)[C@@H](C)C(=O)O[C@H](CC)[C@@](C)(O)[C@H](O)[C@@H](C)/C(=N/OCCCC3CCCCC3)[C@H](C)CC2(C)O)O[C@H](C)C[C@@H]1N(C)C ; measure: MIC ; strain or isolate: 20096 ; value: 0.2 µg/mL
C[C@@H](O)[C@H]1C(=O)N2C(C(=O)O)=C(SCCN=CN)C[C@H]12 ; measure: MIC ; strain or isolate: CIPT 140310003 (smooth) ; value: 10 µg/mL